Key:
[1] = biological target: GABAA receptors of mouse hippocampal neurons (mouse); test: cell-based or functional assay
[2] = biological target: T1, α1β2γ2 GABAA receptor (rat), P62813; test: cell-based or functional assay
T1 chain 1: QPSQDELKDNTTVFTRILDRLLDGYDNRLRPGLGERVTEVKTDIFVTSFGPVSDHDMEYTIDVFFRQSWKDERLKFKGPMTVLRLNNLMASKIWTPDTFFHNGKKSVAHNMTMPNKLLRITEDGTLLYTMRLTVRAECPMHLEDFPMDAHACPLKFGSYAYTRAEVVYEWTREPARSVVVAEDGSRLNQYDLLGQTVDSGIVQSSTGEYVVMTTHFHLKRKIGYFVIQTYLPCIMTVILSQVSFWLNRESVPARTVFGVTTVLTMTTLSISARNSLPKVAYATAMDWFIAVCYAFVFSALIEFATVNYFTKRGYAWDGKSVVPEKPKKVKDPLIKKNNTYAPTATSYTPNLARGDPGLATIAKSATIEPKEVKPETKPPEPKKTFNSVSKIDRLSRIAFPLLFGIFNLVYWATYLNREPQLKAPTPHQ
T1 chain 2: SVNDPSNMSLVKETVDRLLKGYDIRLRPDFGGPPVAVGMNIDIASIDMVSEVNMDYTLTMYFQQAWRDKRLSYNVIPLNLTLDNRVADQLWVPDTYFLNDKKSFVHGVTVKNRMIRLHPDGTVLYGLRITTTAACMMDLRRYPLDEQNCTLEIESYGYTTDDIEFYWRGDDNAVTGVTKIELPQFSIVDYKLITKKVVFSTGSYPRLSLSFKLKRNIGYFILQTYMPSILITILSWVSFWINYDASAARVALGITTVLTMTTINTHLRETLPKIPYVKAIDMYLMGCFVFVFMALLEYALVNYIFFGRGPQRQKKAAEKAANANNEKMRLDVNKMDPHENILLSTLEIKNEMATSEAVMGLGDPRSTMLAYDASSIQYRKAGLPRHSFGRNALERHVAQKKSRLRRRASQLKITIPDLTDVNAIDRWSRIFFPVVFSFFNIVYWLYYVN
T1 chain 3: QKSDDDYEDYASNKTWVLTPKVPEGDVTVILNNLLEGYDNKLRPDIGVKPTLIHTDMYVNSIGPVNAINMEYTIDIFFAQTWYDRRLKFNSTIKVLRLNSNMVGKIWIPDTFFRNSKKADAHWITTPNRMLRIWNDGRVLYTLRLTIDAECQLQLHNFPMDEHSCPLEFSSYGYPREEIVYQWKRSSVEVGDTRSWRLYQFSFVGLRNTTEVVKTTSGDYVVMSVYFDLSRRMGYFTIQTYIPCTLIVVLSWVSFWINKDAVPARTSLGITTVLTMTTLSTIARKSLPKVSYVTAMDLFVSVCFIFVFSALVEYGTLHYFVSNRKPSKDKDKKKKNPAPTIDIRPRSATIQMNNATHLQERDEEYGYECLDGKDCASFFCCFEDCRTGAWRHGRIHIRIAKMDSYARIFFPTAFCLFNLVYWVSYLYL

B1: recombinant MmTX1 (rMmTX1) (peptide)
peptide: LTCKTCPFTTCPNSESCPGGQSICYQRKWEEHRGERIERRCVANCPAFGSHDTSLLCCTRDNCN
modifications: not checked
Binder B1 has a Factor of GABAA current increase, 0.1 µM muscimol + 100 nM rMmTX1 [1] of 7.9 fold, a Factor of GABAA current increase, 0.3 µM muscimol + 100 nM rMmTX1 [1] of 7.5 fold and a Factor of GABAA current increase, 1.0 µM muscimol + 100 nM rMmTX1 [1] of 1.9 fold. The Factor of GABAA current increase, 3 µM muscimol + 100 nM rMmTX1 [1] was 1.4 fold, the Factor of GABAA current increase, 30 µM muscimol + 100 nM rMmTX1 [1] was 1 fold and the Factor of GABAA current increase, 50 µM muscimol + 100 nM rMmTX1 [1] was 1 fold. For the same binder, the inward current with 0.3 µM muscimol applied together with 100 nM rMmTX1 [1] was 439 pA.

B2: synthetic MmTX1 (sMmTX1) (peptide)
peptide: LTCKTCPFTTCPNSESCPGGQSICYQRKWEEHRGERIERRCVANCPAFGSHDTSLLCCTRDNCN
modifications: not checked
B2 was tested, and the factor of current increase, 0.3 µM muscimol + 100 nM sMmTX1, HEK 293 cells [2] was 2.7 fold, the factor of current increase, 3 µM muscimol + 10 nM sMmTX1, HEK 293 cells [2] was 1.28 fold and the factor of current increase, 3 µM muscimol + 100 nM sMmTX1, HEK 293 cells [2] was 1.33 fold. The factor of current increase, 3 µM muscimol + 300 nM sMmTX1, HEK 293 cells [2] was 1.6 fold.

— patent US20180009859A1, “PHARMACOLOGICAL MODULATORS OF GABAA RECEPTORS AND THEIR USE” (priority 2015, published 2018)
